Source: publication PMC9491098, “Discovery of novel drug-like antitubercular hits targeting the MEP pathway enzyme DXPS by strategic application of ligand-based virtual screening” (Chemical Science, 2022)

Chains of the proteins cited; added tags and fusions are not shown.
UniProt P9WNS3, whole entry: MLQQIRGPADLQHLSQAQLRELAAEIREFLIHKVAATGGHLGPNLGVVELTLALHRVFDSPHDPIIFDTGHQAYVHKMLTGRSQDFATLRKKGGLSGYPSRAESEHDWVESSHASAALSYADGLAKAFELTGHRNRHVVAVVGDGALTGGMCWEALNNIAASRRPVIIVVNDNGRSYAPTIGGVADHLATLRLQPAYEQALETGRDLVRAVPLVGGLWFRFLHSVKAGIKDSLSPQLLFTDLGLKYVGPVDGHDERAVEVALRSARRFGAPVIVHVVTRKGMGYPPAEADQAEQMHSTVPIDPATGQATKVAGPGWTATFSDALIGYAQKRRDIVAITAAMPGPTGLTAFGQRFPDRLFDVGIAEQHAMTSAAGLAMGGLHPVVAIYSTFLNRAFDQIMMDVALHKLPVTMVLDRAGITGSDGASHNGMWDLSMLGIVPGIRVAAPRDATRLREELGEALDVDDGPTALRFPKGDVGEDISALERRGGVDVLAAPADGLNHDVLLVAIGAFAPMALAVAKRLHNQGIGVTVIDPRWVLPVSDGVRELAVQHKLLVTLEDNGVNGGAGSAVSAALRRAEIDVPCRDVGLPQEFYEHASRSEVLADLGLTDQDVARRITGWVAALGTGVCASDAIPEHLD

Target: MtDXPS (Mycobacterium tuberculosis, UniProt P9WNS3)
Experiment: coupled spectrophotometric enzyme activity assay against MtDXPS
Format: biochemical

`O=C(O)c1ccc(-n2cccc2/C=N/O)cc1` was tested, and the IC50 (Table S2, second round of LBVS) was > 500 µM.
`NC(=O)c1nnn(Cc2ccccc2)c1N` was tested, and the IC50 (Table S1, first round of LBVS) was > 240 µM.
For `CN1C(=O)NC2(O)C(=O)c3ccccc3C12O` (stereo not drawn), the IC50 (Table S1, first round of LBVS) was > 1000 µM.
For `CC(=O)Nc1ncc(Cc2ccc(C)cc2)s1`, the IC50 (Table S1, first round of LBVS) was > 30 µM.
For `Sc1nnc(-c2csc3c2CCCC3)[nH]1`, the IC50 (Table S1, first round of LBVS) was 528 µM.
In the case of `Cc1ccccc1Cn1c(CCO)nc2ccccc21`, the IC50 (Table S2, second round of LBVS) is reported as > 500 µM.
